Pooled drug test results. Numbers come from NIAID ChemDB, via PubChem.

Common to all: growth or infection tests; agent: Plasmodium falciparum; endpoint: EC50

ECn is the concentration giving n% inhibition of infection, replication or growth. Neighbouring rows are from separate reports. Blank or dashed fields: not listed here.

structure,cells,read by,changes,strain,value
O=c1c2ccccc2ncn1CCCC1NCCCC[C@@H]1O,Human A+ erythrocytes,LDH / absorbance,,K1,0.725 µg/mL
O=C1N2[C@@H]3C=CC=C[C@@H]3C[C@@]23SS[C@@]12C[C@H]1C=CC=C[C@H]1N2C3=O,,SYBR Green,,3D7,2.7 µM
Cc1ccc(C2OOC(c3ccc(CO)cc3)OO2)cc1,,LDH,,W2,2.24 µM
O=C(NCCOc1ccccc1)c1ccccc1O,,,,Dd2,13.4 µM
CCCCNCCCCCOc1ccc2ccccc2c1,Erythrocytes,flow cytometry,,K1,1.36 µM
COc1ccc2nccc([C@@H](O)C3CC4CCN3CC4/C=C/c3ccc4ccccc4c3)c2c1,,,,Dd2,>0.5 µM
O=C(CC1NCCC[C@@H]1O)Cn1cnc2ccccc2c1=O,Human A+ erythrocytes,LDH / absorbance,,K1,0.0014 µg/mL
Cc1cccc(OC2CCCN(C(=O)c3ccccc3Cl)C2)c1,,,,Dd2,>50 µM
CS[C@]12C[C@H]3C=CC=C[C@H]3N1C(=O)[C@@]1(SC)C[C@H]3C=CC=C[C@H]3N1C2=O,,SYBR Green,,3D7,>50 µM
CCOC(=O)c1cn(CC(F)(F)F)c2ccc3nc(-c4ccc(F)cc4)c(-c4ccc(F)cc4)nc3c2c1=O,,fluorescence,,3D7,3.92 µM
Cc1ccc(C=C2SC(=O)N(CC(=O)N3CCN(c4ccccc4)CC3)C2=O)cc1,,fluorescence,Chloroquine-resistant,W2,>10 µM
CCOc1ccc(Nc2cc(C)nc3ccc(OC)cc23)cc1,Erythrocytes,flow cytometry,,K1,6.09 µM
O=CN(O)CCC(c1ccc(Cl)c(Cl)c1)P(=O)(O)O,,fluorescence,,3D7,0.09 µM
CCCCCCc1ncn(CC(=O)CC2NCCC[C@@H]2O)c(=O)c1CCCCCC,Human A+ erythrocytes,LDH / absorbance,,K1,>1 µg/mL
c1ccc(-c2ccccc2OCCCCN2CCCCC2)cc1,Erythrocytes,flow cytometry,,K1,3.11 µM
C[C@@H]1CC[C@H]2[C@@H](C)C(=O)O[C@@H]3OC4(C)CC[C@@H]1[C@]32OO4,,schizont maturation,,,0.0081 µM
CCN(CC)CCCC(C)Nc1ccnc2cc(Cl)ccc12,Erythrocyte,LDH,,K1,0.184 µg/mL
Cc1ccc(NCN2C(=O)c3ccccc3C2=O)cc1,,,,Dd2,>50 µM
CC(O)CNCCCCOc1ccc(Cl)cc1Cc1ccccc1,Erythrocytes,flow cytometry,,3D7,>7.06 µM
CCc1ccccc1NC(=O)CSc1nc2ncccc2[nH]1,Erythrocytes,microscopy,,3D7,0.2345 µM
Cc1cccc(OCCNC(=O)c2ccc3ccccc3c2O)c1,,,,Dd2,>50 µM
C[C@@H]1CC[C@H]2[C@@H](C)C(=O)O[C@@H]3OC4(C)CC[C@@H]1[C@]32OO4,,SYBR Green / fluorescence,KAE678-resistant pfatp4 A184S/P990R,KAE678R-2,0.0334 µM
O=C(C[C@H]1NCCC[C@@H]1O)Cn1cnc2cc(Br)c(Cl)cc2c1=O,,microscopy / fluorescence,,3D7,0.0007 µM
O=c1c2ccccc2ncn1CCCC1NCCC[C@@H]1O,Human A+ erythrocytes,LDH / absorbance,,FCR3,0.0225 µg/mL
Cc1cccc(NCc2cc3ccccc3[nH]c2=O)c1,,,,Dd2,>50 µM
O=C(CC1NCC[C@@H]1O)Cn1cnc2ccccc2c1=O,Human A+ erythrocytes,LDH / absorbance,,FCR3,0.0611 µg/mL
Cc1cccc(OCCNC(=O)c2ccc(N)cc2Cl)c1,,,,Dd2,10.5 µM
C[C@@H]1CC[C@H]2[C@@H](C)C(=O)O[C@@H]3OC4(C)CC[C@@H]1[C@]32OO4,,LDH / absorbance,,3D7,0.0067 µg/mL
O=C(CN1C(=O)SC(=Cc2ccccc2)C1=O)N1CCN(c2ccccc2)CC1,,fluorescence,Chloroquine-resistant,W2,>10 µM
O=C(C[C@H]1NCCC[C@@H]1O)Cn1cnc2c(c1=O)CCC2,Human A+ erythrocytes,LDH / absorbance,,FCR3,0.0747 µg/mL
COc1cc(OC)c(C=C2SC(=O)N(Cc3ccc(F)cc3)C2=O)c(OC)c1,,fluorescence,Chloroquine-resistant,W2,8.75 µM
O=C(O)c1cn(C2CC2)c2cc(N3CCNCC3)c(F)cc2c1=O,,fluorescence,,3D7,23.1 µM
CCc1ncn(CC(=O)CC2NCCC[C@@H]2O)c(=O)c1CC,Human A+ erythrocytes,LDH / absorbance,,K1,0.243 µg/mL
O=C(CN1C(=O)SC(=Cc2ccccc2Br)C1=O)N1CCN(c2ccccc2)CC1,,fluorescence,Chloroquine-resistant,W2,>10 µM
CCCCC1(CC(=O)OCC)C(=O)N(c2ccccc2)N(c2ccccc2)C1=O,Erythrocytes,flow cytometry,,K1,7.91 µM
CC[C@H](CC[C@@H](C)[C@H]1CC[C@H]2[C@@H]3CC=C4C[C@@H](O)CC[C@]4(C)[C@H]3CC[C@]12C)C(C)C,,LDH,,D10,>200 µM
O=C1N2[C@H]3[C@@H](C[C@@]24SS[C@@]12C[C@@H]1[C@@H]([C@@H]5C=C[C@H]1OO5)N2C4=O)[C@H]1C=C[C@@H]3OO1,,SYBR Green,,3D7,2.5 µM
CCN(CC)CCCC(C)Nc1ccnc2cc(Cl)ccc12,,SYBR Green,,3D7,0.005 µg/mL
CCN(CC)CCCC(C)Nc1ccnc2cc(Cl)ccc12,,LDH,,NF54,0.0138 µM
CC(=O)N(O)CCCP(=O)(O)O,RBC,absorbance,,K1,1.48 µM
C=CCOc1ccc(CNC(C)C(O)c2ccccc2)cc1,Erythrocytes,flow cytometry,,3D7,4.94 µM
O=C(CN1C(=O)SC(=Cc2ccccc2OC(F)(F)F)C1=O)N1CCN(c2ccccc2)CC1,,fluorescence,Chloroquine-resistant,W2,>10 µM
O=C1C=C[C@H](O)[C@@H]2[C@H]1C[C@]13SS[C@@]4(C[C@H]5C(=O)C=C[C@H](O)[C@H]5N4C1=O)C(=O)N23,,SYBR Green,,3D7,4.5 µM
COc1ccc(Cc2c3cc(OC)c(OC)cc3cc[n+]2C)cc1OC,Erythrocytes,flow cytometry,,3D7,>17.1 µM
O[C@H](c1cc(C(F)(F)F)nc2c(C(F)(F)F)cccc12)[C@@H]1CCCCN1,human red blood cells,broth dilution / radiometric,,FCM29,0.0156 µM
O=C(NCCOc1ccc2ccccc2c1)c1ccccc1Cl,,,,Dd2,1.7 µM
CCc1cccc(OCCCCN(C)Cc2ccccc2)c1,Erythrocytes,flow cytometry,,K1,6.22 µM
O=C1[C@@H]2C[C@H]3C=CC=C[C@H]3N2C(=O)[C@@H]2C[C@H]3C=CC=C[C@H]3N12,,SYBR Green,,3D7,>50 µM

The last 4 rows once more:

O[C@H](c1cc(C(F)(F)F)nc2c(C(F)(F)F)cccc12)[C@@H]1CCCCN1 ; cells: human red blood cells ; read by: broth dilution / radiometric ; strain: FCM29 ; value: 0.0156 µM
O=C(NCCOc1ccc2ccccc2c1)c1ccccc1Cl ; strain: Dd2 ; value: 1.7 µM
CCc1cccc(OCCCCN(C)Cc2ccccc2)c1 ; cells: Erythrocytes ; read by: flow cytometry ; strain: K1 ; value: 6.22 µM
O=C1[C@@H]2C[C@H]3C=CC=C[C@H]3N2C(=O)[C@@H]2C[C@H]3C=CC=C[C@H]3N12 ; read by: SYBR Green ; strain: 3D7 ; value: >50 µM